According to publication PMC9150099, “Preventing Influenza A Virus Infection by Mixed Inhibition of Neuraminidase and Hemagglutinin by Divalent Inhibitors” (Journal of Medicinal Chemistry, 2022):
The structures given here were assigned with low confidence; some may be wrong.

Legend:
[1] = system: Neth09H1N1 virus infection of MDCK cells; test: 4-day CPE reduction assay on MDCK cells; type: cell-based, Influenza virus A/Netherlands/602/2009 (Neth09H1N1)
[2] = molecular target: NA of the whole Neth09H1N1 virus (Influenza A virus, UniProt C3PSV3)
[3] = molecular target: recombinant soluble tetrameric N1 and N9 proteins (neuraminidase)

CCC(CCCCc1cn(C2OC(CO)C(n3cc(CCCCC(CC)OC4OC(C(=O)O)=CC(O)C4NC(C)=O)nn3)C(O)C2O)nn1)OC1OC(C(=O)O)=CC(O)C1NC(C)=O (stereo not shown)
CPE reduction assay on MDCK cells, lowest concentration that inhibits CPE formation [1]: >5 µM | CPE assay ([1]; supplementary CSV): >5 mM | IC50 [2]: 1.5 µM | IC50 [3]: 5.2 µM
